Compound potency records, mixed from different reports. Data source: NIAID ChemDB in PubChem.

Common to all: growth or infection tests; agent: HIV-1; cell line: CEM; read-out: EC50

An empty or dashed field is not shown. ECn is the concentration giving n% inhibition of infection, replication or growth. Neighbouring rows are from separate reports.

SMILES	strain	mutations	read by	result
CC(C)(C)[Si](C)(C)OCC1OC(n2nncc2C(=O)NC2CC2)C(O[Si](C)(C)C(C)(C)C)C12OS(=O)(=O)C=C2N	IIIB	-	cytopathic effect	0.08 µM
Cc1cc(O)c(C)c(C(=O)N[C@@H](Cc2ccccc2)[C@H](O)C(=O)N2C[C@@H](Cl)C[C@H]2C(=O)NC(C)(C)C)c1	IIIB	-	p24	<0.115 µM
Cc1cc(SC2=C(O)C[C@](CCc3ccc(N)cc3)(C(C)C)OC2=O)c(C(C)(C)C)cc1CO	IIIB	-	cytopathic effect / MTT	19.8 µM
C1CNCCNCCCN(CCCN2CCCNCCNCCCNCC2)CCNC1	IIIB	-	antigen	1.24 µM
Nc1nc2c(ncn2[C@@H]2O[C@@H](CO)[C@H](O)[C@H]2O)c(=O)[nH]1	BRU	-	syncytia	>100 µM
C[C@H](Cn1cnc2c(N)ncnc21)OCP(=O)(O)O	HHA-500SN (GP120-T90I T188N T236A N289K T297I S334N T341I N386D)	gp120 T90I T188N T236A N289K T297I S334N T341I N386D	syncytia	4.1 µg/mL
Cc1cn([C@H]2C[C@H](N=[N+]=[N-])[C@@H](CN3C(=O)c4c(F)c(F)c(F)c(F)c4C3=O)O2)c(=O)[nH]c1=O	IIIB	-	syncytia	2.3 µM
Nc1nc2c(ncn2[C@H]2CC[C@@H](CO)O2)c(=O)[nH]1	TSAO-m3T-resistant (RT E138K)	RT-E138K	-	0.77 µM
O=c1ccn([C@@H]2O[C@@H](CO)[C@H](O)[C@H]2O)c(=O)[nH]1	BRU	-	syncytia	500 µM
Cc1cn([C@H]2C[C@H](N(C)O)[C@@H](CO)O2)c(=O)[nH]c1=O	IIIB	-	syncytia	3.7 µg/mL
Nc1ccn([C@@H]2O[C@H](CO)C[C@@H]2F)c(=O)n1	LAV	-	p24 / ELISA	0.9 µg/mL
Nc1ncnc2c1ncn2CCOCP(=O)(O)O	IIIB	-	syncytia	2.9 µg/mL
Cc1cn([C@@H]2O[C@H](CO[Si](C)(C)C(C)(C)C)C3(OS(=O)(=O)C=C3N)[C@H]2O[Si](C)(C)C(C)(C)C)c(=O)n(C)c1=O	IIIB	-	-	0.05 µM
CCN1c2ncccc2N(C)C(=S)c2oc3cccnc3c21	IIIB	-	cytopathic effect	0.03 µM
Cc1cn([C@H]2C[C@H](N=[N+]=[N-])[C@@H](CN3C(=O)c4cc(Cl)c(Cl)cc4C3=O)O2)c(=O)[nH]c1=O	IIIB	-	syncytia	5.8 µM
Cc1cc(SC2=C(O)C[C@](CCc3ccc(O)cc3)(C(C)C)OC2=O)c(C(C)(C)C)cc1CO	IIIB	-	cytopathic effect / MTT	17 µM
C[C@H](Cn1cnc2c(N)ncnc21)OCP(=O)(O)O	IIIB	-	syncytia	1.1 µg/mL
Cc1ccc(C[C@H](NC(=O)c2cccc(O)c2C)[C@H](O)C(=O)N2C[C@@H](Cl)C[C@H]2C(=O)NC(C)(C)C)cc1C	IIIB	-	p24	<0.051 µM
Cc1cn([C@H]2C[C@H](N=[N+]=[N-])[C@@H](CN3C(=O)c4c(Cl)c(Cl)c(Cl)c(Cl)c4C3=O)O2)c(=O)[nH]c1=O	IIIB	-	syncytia	2.6 µM
CCNC(=O)c1cnnn1C1OC(CO[Si](C)(C)C(C)(C)C)C2(OS(=O)(=O)C=C2N)C1O[Si](C)(C)C(C)(C)C	IIIB	-	cytopathic effect	0.13 µM
Cc1cc(O)c(C)c(C(=O)N[C@@H](Cc2ccc3ccccc3c2)[C@H](O)C(=O)N2C[C@@H](Cl)C[C@H]2C(=O)NC(C)(C)C)c1	IIIB	-	p24	<0.027 µM
CCCC1(CCc2ccc(O)cc2)CC(O)=C(Sc2cc(C)c(OCCO)cc2C(C)(C)C)C(=O)O1	IIIB	-	cytopathic effect / MTT	4.3 µM
Cc1cn([C@@H]2O[C@H](CO[Si](C)(C)C(C)(C)C)C3(OS(=O)(=O)C=C3N)[C@H]2O[Si](C)(C)C(C)(C)C)c(=O)n(C)c1=O	IIIB	RT-E138K	syncytia	>20 µM
CC[C@H](C)[C@@H](C(=O)O)n1sc2ccccc2c1=O	AZT-resistant	-	p24 / RT activity	10.5 µM
Cc1ccnc2c1NC(=O)c1cccnc1N2C1CC1	IIIB	-	syncytia	0.12 µM
Cc1cn([C@H]2C[C@H](N=[N+]=[N-])[C@@H](CN3C(=S)c4ccccc4C3=S)O2)c(=O)[nH]c1=O	IIIB	-	syncytia	1.7 µM
Cc1cn([C@@H]2O[C@H](CO)C[C@@H]2F)c(=O)[nH]c1=O	LAV	-	p24 / ELISA	>25 µg/mL
Cc1cc(C)cc(Sc2c(C(C)C)c(=O)[nH]c(=S)n2COCCO)c1	IIIB	RT-E138K	syncytia	0.04 µM
CC(C)(C)[Si](C)(C)OCC1OC(n2nncc2C(=O)NC2CCCC2)C(O[Si](C)(C)C(C)(C)C)C12OS(=O)(=O)C=C2N	IIIB	-	cytopathic effect	0.16 µM
O=C(O)P(=O)(O)O	LAI	-	plaque count	133 µM
Nc1nc2c(ncn2[C@H]2C[C@@H](O)[C@H](CO)O2)c(=O)[nH]1	BRU	-	syncytia	>100 µM
CC(C)(C)[Si](C)(C)OC[C@H]1O[C@@H](n2cnc3c(N)ncnc32)[C@H](O[Si](C)(C)C(C)(C)C)C12OS(=O)(=O)C=C2N	IIIB	RT-E138K	syncytia	>8 µM
Cc1occc1C(=S)Nc1ccc(Cl)c(/C=N/OC(C)(C)C)c1	IIIB	RT-L100I	cytopathic effect	0.13 µg/mL
Nc1ncnc2c(C3CC(CO)(CO)CO3)c[nH]c12	-	-	XTT	9.3 µg/mL
Cc1cn([C@H]2C[C@H](N=[N+]=[N-])[C@@H](CO)O2)c(=O)[nH]c1=O	LAV-1	-	virus yield	<0.1 µM
Cc1cc(SC2=C(O)C[C@@](CCc3ccc(N)cc3)(C(C)C)OC2=O)c(C(C)(C)C)cc1CO	IIIB	-	cytopathic effect / MTT	0.2 µM
Cc1cn([C@H]2C[C@@H](O)[C@H](CO)O2)c(=O)[nH]c1=O	BRU	-	syncytia	>1000 µM
CCN(CCO)CCCC(C)Nc1ccnc2cc(Cl)ccc12	IIIB	-	RT activity	~100 µg/mL
CC(C)Nc1cccnc1N1CCN(C(=O)c2cc3cc(NS(C)(=O)=O)ccc3[nH]2)CC1	IIIB	RT-V179D	syncytia	0.13 ± 0.06 µM
CCN(C)C(=O)c1cnnn1C1OC(CO[Si](C)(C)C(C)(C)C)C2(OS(=O)(=O)C=C2N)C1O[Si](C)(C)C(C)(C)C	IIIB	-	cytopathic effect	0.33 µM
Cc1cn([C@H]2C[C@H](N=[N+]=[N-])[C@@H](CN3C(=O)c4ccccc4C3=O)O2)c(=O)[nH]c1=O	IIIB	-	syncytia	1.4 µM
O=c1[nH]cnc2c1ncn2[C@H]1CC[C@@H](CO)O1	IIIB	RT-V179D	syncytia	6.9 ± 6.18 µM
O=c1[nH]c2ccc(Cl)cc2n1Cc1c(F)cccc1F	-	RT-K103N	cytopathic effect	>20 µM
O=c1[nH]cnc2c1ncn2[C@H]1CC[C@@H](CO)O1	IIIB	-	syncytia	4.6 µM

Repeating the final 2 entries:

O=c1[nH]c2ccc(Cl)cc2n1Cc1c(F)cccc1F ; mutations: RT-K103N ; read by: cytopathic effect ; result: >20 µM
O=c1[nH]cnc2c1ncn2[C@H]1CC[C@@H](CO)O1 ; strain: IIIB ; read by: syncytia ; result: 4.6 µM